From paper PMC4909229, “Characterization of Staphylococcus aureus Primosomal DnaD Protein: Highly Conserved C-Terminal Region Is Crucial for ssDNA and PriA Helicase Binding but Not for DnaA Protein-Binding and Self-Tetrameri” come the findings set out here.

A weaker result is weaker than the reference pair of the same experiment. Tags and fusion partners may be left off the protein sequences shown.

In this data set the target is T1, SaDnaD (Staphylococcus aureus subsp. aureus ED98) (UniProt Q9EUT0).
T1 sequence (looked up): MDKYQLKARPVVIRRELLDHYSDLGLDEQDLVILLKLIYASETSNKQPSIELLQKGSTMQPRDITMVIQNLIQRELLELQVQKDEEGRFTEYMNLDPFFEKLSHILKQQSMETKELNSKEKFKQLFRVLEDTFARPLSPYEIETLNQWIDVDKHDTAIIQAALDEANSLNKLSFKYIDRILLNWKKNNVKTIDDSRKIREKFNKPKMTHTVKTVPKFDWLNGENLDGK
Kind of data set: EMSA. Conditions: no stable complex, smears, [Protein]50 ND (up to 16 uM); EMSA: 20 mM Tris-HCl pH 8.0, 100 mM NaCl, 25 C, 30 min, 1.7 nM DNA, gel at 4 C in TBE; recombinant protein; residues 1-228; protein details: C-terminal His tag (pET21e); label: 5'-32P; single-stranded DNA. A general note: Mobility shift assays separate free from complexed probe on a gel.

Regarding TTTTTTTTTTTTTTTTTTTT [dT20], the binding result was “binds more weakly”.
